US20220380341A1, “INHIBITORS OF HIV-1 NEF FOR THE TREATMENT OF HIV DISEASE” (priority 2018, published 2022)
Like-named read-outs stand apart in the source and are kept apart here.

Chains of the proteins cited; added tags and fusions are not shown. Residues count along the entry.
UniProt P03406, 2-206 V11I/T15A/A33V/T51N limits assumed: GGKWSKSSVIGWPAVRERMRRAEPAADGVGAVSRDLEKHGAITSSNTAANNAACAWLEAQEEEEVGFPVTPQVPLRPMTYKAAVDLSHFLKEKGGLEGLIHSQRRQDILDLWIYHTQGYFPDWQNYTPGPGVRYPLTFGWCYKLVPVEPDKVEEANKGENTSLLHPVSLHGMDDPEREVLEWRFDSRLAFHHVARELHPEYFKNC

Legend:
HIV-1NL4-3 = experiment: HIV-1 infectivity assay in TZM-bl reporter cell line (LTR-luciferase, 48 h); assay type: cell-based; details: for % Infectivity Inhibition: 1.0 μM, TZM-bl reporter cell line, Table 4; for HIV-1 Infectivity % Inhibition Norm. to Δ-Nef @ 1 μM: Table 2, TZM-bl cells, 48 h, 100% = Nef-defective HIV-1
Description: In particular, the tables show antiretroviral activity as percent inhibition of HIV-1 infectivity at 1 μM. In brief, this assay uses the TZM-bl reporter cell line, which carries a stable copy of the HIV-1 LTR coupled to luciferase. Cells are infected with HIV-1NL4-3 in the presence and absence of each compound, and luciferase activity is measured 48 h later. This assay measures early events in the HIV-1 life cycle, including viral entry, reverse transcription, nuclear entry and integration, and viral transcription. All assays include control cells infected with Nef-defective HIV-1, which replicates at 30-50% of wild-type in this system. Results are normalized to percent inhibition relative to DMSO-treated control cells infected with wild-type HIV-1 (0% inhibition) and DMSO-treated cells infected with Nef-defective HIV-1 (100% of the Nef-dependent effect)—see column 3. In addition, cell viability is measured in the TZM-bl cell line in the presence of each test compound and in the absence of HIV-1 infection, using the Cell Titer Blue cell viability assay (Promega; column 4).

HIV-1 NefNL4-3 = HIV-1 NefNL4-3 (Human immunodeficiency virus type 1 group M subtype B, UniProt P03406, A33V/T15A/T51N/V11I); experiment: Surface plasmon resonance binding to recombinant full-length Nef (NL4-3); details: for T, minutes (residence time): 1:1 Langmuir fit, T = 1/koff; for RU30/RUNef (extent of binding): response units at 30 μM relative to Nef immobilized on the SPR chip
Description: FIG. 1. Structures and by surface plasmon resonance (SPR) sensorgrams for several compounds disclosed herein. Each of the compounds shown was assayed for interaction with HIV-1 NefNL4-3 by SPR. In particular, Recombinant HIV-1 Nef protein (strain NL4-3) was expressed in E. coli and purified to homogeneity. The Nef protein was immobilized on the surface of a carboxymethyl dextran hydrogel biosensor chip, and each compound was injected over a range of concentrations in duplicate (concentrations shown at lower left) for 90 seconds, followed by a 120 second dissociation phase. The resulting sensorgrams were best fit by either a 1:1 Langmuir binding model or by a two-step induced-fit model, and the KD values shown were calculated from the resulting kinetic rate constants. Compounds were tested over the range of concentrations shown, and the resulting sensorgrams were best-fit by a two-step induced-fit model. The resulting KD values are shown below each compound number.
FIG. 2. Structures and SPR data for several compounds disclosed herein. Each of the compounds shown was assayed for interaction with HIV-1 NefNL4-3 by SPR. Compounds were tested over the range of concentrations shown, and the resulting sensorgrams were best-fit by a two-step induced-fit model. The resulting KD values are shown below each compound.

[1] = Table 4, SPR fit 1:1 Langmuir, KD = koff/kon
[2] = read-out: Nef NL4-3 Binding, SPR 1:1 or 2-site fitting KD1, Table 2, 1:1 Langmuir fit where the KD2 cell says '1 to 1 fitting', else 2-site fit

Row | SMILES | % Infectivity Inhibition (HIV-1NL4-3) [%] | HIV-1 Infectivity % Inhibition Norm. to Δ-Nef @ 1 μM (HIV-1NL4-3) [%] | T, minutes (residence time) (HIV-1 NefNL4-3; Table 4) | Kd (HIV-1 NefNL4-3; [1]) [µM] | Kd (HIV-1 NefNL4-3; [2]) [µM] | RU30/RUNef (extent of binding) (HIV-1 NefNL4-3)
1 | Fc1ccc(-c2nn(-c3cc(C(F)(F)F)n[nH]3)cc2CCc2ccccc2)cc1 [Compound I-1501] | 3 | −21.4 | 2.36E + 02 minutes | 0.198 | 0.942 | 1.15E- 02
2 | CS(=O)(=O)c1ccc(-c2nn(-c3cc(C4CC4)n[nH]3)c(O)c2CCC2CCOCC2)cc1 [Compound I-607] | 57.3 | 57.3 | 3.74E- 01 minutes | 88.6 | 6.92 | 7.73E- 03
